Our source for the Kd, koff and kon values is PMC9027083 (International Journal of Molecular Sciences, 2022).

The test addresses envelope protein domain III, dengue virus (Dengue virus 2, strain Thailand/16681/84, UniProt P29990, strain). As to the kind of experiment: SPR. As to conditions: both partners purified.

B1: 1A1D-2 Fab WT (Fab, V domains shown)
VH: EVQLQQSGAELVKPGASVKLSCTASGFNIKDTYMHWVKQRPEQGLEWIGRIDPANGYSKYDPKFQGKATITADTSSNAAYLQLSSLTSEDTAVYFCARDYEGFAYWGQGTLVTVSS
VL: DIVLTQSPASLAVSLGQRATISCRASESVVRYGNSFMHWYQQKPGQPPKLLIYRASSLESGIPTRFSGSGSRTDFTLTINPVEADDVATYYCQQTNVDPWAFGGGTKLEIK
notes: also called 1A1D-2 WT
By Kd is commonly meant the concentration at which binding is half-saturated. Broadly, the koff is the first-order rate constant of dissociation. What is called kon is the rate constant with which the complex forms. The molecule B1 had a Kd of 440 nM, an off-rate (koff) of 0.0471 s⁻¹ and a kon of 107000 M⁻¹ s⁻¹.
